Taken from: PubChem BioAssay AID624099 (ICCB-Longwood, 2012)
Assay: 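Human genes that papillomavirus E2 requires to repress the HPV18 LCR promoter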 (primary screen). System: human C33A cervical carcinoma cells (HPV-negative) stably expressing BPV1 E2 and an HPV18 LCR luciferase reporter. Reagent: siRNA pool against human genes, 40 nM. Duration: 72 h. Measurement: 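HPV18 LCR reporter light per well, converted to plate-wise z-scores that exclude control wells, and averaged over triplicate plates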. Scale: mean z-score and z-score: higher = stronger reporter signal, weaker E2 silencing. Hit rule: 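Mean z ≥ 2 together with z ≥ 2 in two or more of the three replicates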.
The deposit covers about 21,000 reagents; shown is a part drawn at random. 497 of all reagents (2.4%) were called active. 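Higher z means weaker E2 silencing; only reporter increases were scored, and knock-downs that hurt cell survival may mask genuine repressor factors.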 Unmarked entries are inactive. Reagent sequences are not shown.

What is on record for SLC66A1LP [SID134327386]?
mean z-score: -0.3; z-score, replicate A: 0.33; z-score, replicate B: -0.65; z-score, replicate C: -0.57

For COX6B2 (cytochrome c oxidase subunit 6B2) [SID134323203], what does the deposit list?
mean z-score: -0.56; z-score, replicate A: -0.63; z-score, replicate B: -0.41; z-score, replicate C: -0.65

What is on record for CDK1 (cyclin dependent kinase 1) [SID56478584]?
mean z-score: -1.52; z-score, replicate A: -2.17; z-score, replicate B: -1.65; z-score, replicate C: -0.76

What did the screen give for FBXO43 (F-box protein 43) [SID134326404]?
mean z-score: 0.23; z-score, replicate A: 0.55; z-score, replicate B: -0.12; z-score, replicate C: 0.25

Which result is listed for SLC38A1 [SID134312604]?
mean z-score: 0.64; z-score, replicate A: 0.76; z-score, replicate B: 0.31; z-score, replicate C: 0.85

For EPCAM (epithelial cell adhesion molecule) [SID134310525], how do the results read?
mean z-score: -0.08; z-score, replicate A: 0.2; z-score, replicate B: -0.16; z-score, replicate C: -0.27

Which result is listed for HARS1 (histidyl-tRNA synthetase 1) [SID134317637]?
mean z-score: -0.33; z-score, replicate A: -0.44; z-score, replicate B: 0.32; z-score, replicate C: -0.88

With MINK1 (misshapen like kinase 1) [SID56478896], what does the deposit list?
mean z-score: -0.58; z-score, replicate A: -0.59; z-score, replicate B: -0.47; z-score, replicate C: -0.68

What did the screen give for CTNNA1 (catenin alpha 1) [SID134315005]?
mean z-score: -0.92; z-score, replicate A: -0.75; z-score, replicate B: -0.89; z-score, replicate C: -1.12

For DAO (D-amino acid oxidase) [SID134314472], how do the results read?
mean z-score: 1.35; z-score, replicate A: 1.28; z-score, replicate B: 1.25; z-score, replicate C: 1.54

How did the screen score GCH1 (GTP cyclohydrolase 1) [SID134314901]?
mean z-score: 1.03; z-score, replicate A: 0.55; z-score, replicate B: 1.65; z-score, replicate C: 0.89

For TXNRD2 (thioredoxin reductase 2) [SID134313923], what was measured?
mean z-score: 0.41; z-score, replicate A: 0.47; z-score, replicate B: 0.2; z-score, replicate C: 0.57

For LOC391542 (retired record) [SID134327341], what does the deposit list?
mean z-score: -1.47; z-score, replicate A: -1.2; z-score, replicate B: -1.89; z-score, replicate C: -1.32

A run of entries of the results above, as a working copy:
GCH1 (GTP cyclohydrolase 1) [SID134314901] → mean z-score = 1.03; z-score, replicate A = 0.55; z-score, replicate B = 1.65; z-score, replicate C = 0.89
TXNRD2 (thioredoxin reductase 2) [SID134313923] → mean z-score = 0.41; z-score, replicate A = 0.47; z-score, replicate B = 0.2; z-score, replicate C = 0.57

Next entries follow.
How did the screen score PRDM8 (PR/SET domain 8) [SID134324324]?
mean z-score: 0.84; z-score, replicate A: 1.08; z-score, replicate B: 0.82; z-score, replicate C: 0.62

With LIG3 (DNA ligase 3) [SID134313994], what does the deposit list?
mean z-score: -0.78; z-score, replicate A: -0.65; z-score, replicate B: -0.91; z-score, replicate C: -0.79

For LAPTM4B (lysosomal protein transmembrane 4 beta) [SID134321625], how do the results read?
mean z-score: -0.74; z-score, replicate A: -0.76; z-score, replicate B: -0.46; z-score, replicate C: -1

What is on record for ZNF683 (zinc finger protein 683) [SID134322210]?
mean z-score: 0; z-score, replicate A: 0.12; z-score, replicate B: 0.41; z-score, replicate C: -0.54

What is on record for C1orf116 (chromosome 1 open reading frame 116) [SID134318479]?
mean z-score: 0.93; z-score, replicate A: 1.38; z-score, replicate B: 0.82; z-score, replicate C: 0.58

With JAGN1 (jagunal vesicle mediated transporter 1) [SID134322828], what was measured?
mean z-score: -0.98; z-score, replicate A: -1.34; z-score, replicate B: -1; z-score, replicate C: -0.61

For RPL23AP37 (ribosomal protein L23a pseudogene 37) [SID134325506], what was measured?
mean z-score: -1.93; z-score, replicate A: -1.68; z-score, replicate B: -2.29; z-score, replicate C: -1.83

What did the screen give for DOCK6 (dedicator of cytokinesis 6) [SID134329434]?
mean z-score: 0.74; z-score, replicate A: 0.62; z-score, replicate B: 0.69; z-score, replicate C: 0.91
